Anti-infective test results gathered from many reports (values: NIAID ChemDB through PubChem).

Common to all: tests in culture; agent: Candida krusei

MIC50, MIC90 and the like: level of inhibition, or share of isolates inhibited.

SMILES | method | strain or isolate | measure | value
Cc1ccc(N2N=C(c3c[nH]c4ccccc34)CC2c2c(Cl)cccc2Cl)cc1 | broth dilution | NRRL Y-7179 | MIC | 50 µg/mL
CCOc1ccc2nc3cc(N=C4NC(=O)/C(=C\c5ccc([N+](=O)[O-])o5)S4)ccc3c(N)c2c1 | broth dilution | - | MIC | 62.5 µg/mL
C[C@H]1[C@H](O)[C@@H](C)/C=C/C=C/C=C/C=C/C=C/C=C/C=C/[C@H](O[C@@H]2O[C@H](C)[C@@H](O)[C@H](N)[C@@H]2O)C[C@@H]2O[C@](O)(C[C@@H](O)C[C@@H](O)CC[C@H](O)[C@@H](O)C[C@@H](O)CC(=O)O[C@H]1C)C[C@H](O)[C@H]2C(=O)O | broth dilution / turbidity | CCC 117-2000 | MIC | 0.49 µg/mL
Cc1cc(C[n+]2cccc(C=NO)c2)on1.[Br-] | broth dilution | - | EC50 | >20 µg/mL
Cc1ccc(C(O)c2cccc(C(O)CCn3ccnc3)c2)cc1 | broth dilution | RTCC 1090 | MIC | >64 µg/mL
O/N=C/c1ccc[n+](Cc2cc(C[n+]3cccc(/C=N/O)c3)on2)c1.[Br-].[Br-] | broth dilution | - | EC50 | >20 µg/mL
COC(=O)c1cc(O)c(O)c2oc3cc(OC)cc(O)c3c(=O)c12 | broth dilution | ATCC 6258 | MIC | 15.7 µg/mL
O=C(c1ccccc1)C(c1ccccc1)n1ccnc1 | broth dilution | - | MFC | >256 µg/mL
CC(C)=CCC/C(C)=C/CN(C)C(=N)N(C)C/C=C(\C)CCC=C(C)C | - | ATCC 6258 | MIC | 62.5 µg/mL
CC(C)C(NC(=O)C(N)Cc1ccccc1)C(=O)NC(CCCN=C(N)N)C(=O)O | broth dilution | ATCC 6258 | MFC | 685 µg/mL
CC1=C2C3=C4[C@](C)([C@@H]5C[C@@H]5[C@@]4(O)C[C@@H]4[C@]35OC(=O)C3=C5C[C@H]5[C@](O)(COC(=O)/C(C)=C/COC(=O)CCC(=O)OC3)[C@H]3C[C@H]3[C@]45C)[C@H](O)[C@]2(O)OC1=O | broth dilution | ATCC 6258 | MIC | >256 µg/mL
C[C@H]1[C@H](O)[C@@H](C)/C=C/C=C/C=C/C=C/C=C/C=C/C=C/[C@H](O[C@@H]2O[C@H](C)[C@@H](O)[C@H](N)[C@@H]2O)C[C@@H]2O[C@](O)(C[C@@H](O)C[C@@H](O)CC[C@H](O)[C@@H](O)C[C@@H](O)CC(=O)O[C@H]1C)C[C@H](O)[C@H]2C(=O)O | absorbance | Clinical isolate | MIC | 0.25 µg/mL
O=C(/C=C/c1cc(Cl)ccc1Cl)c1c[nH]c2ccccc12 | broth dilution | NRRL Y-7179 | MIC | 200 µg/mL
C[C@H]1[C@H](O)[C@@H](C)/C=C/C=C/C=C/C=C/C=C/C=C/C=C/[C@H](O[C@@H]2O[C@H](C)[C@@H](O)[C@H](N)[C@@H]2O)C[C@@H]2O[C@](O)(C[C@@H](O)C[C@@H](O)CC[C@H](O)[C@@H](O)C[C@@H](O)CC(=O)O[C@H]1C)C[C@H](O)[C@H]2C(=O)O | broth dilution / absorbance | CCC 117 | MIC100 | 0.39 µg/mL
C/C1=C\C(=O)c2c(C)coc2C/C(C)=C/CC1 | broth dilution | ATCC 6258 | MIC | >256 µg/mL
O=C1c2ccccc2CC1Cn1ccnc1 | broth dilution | RTCC 1090 | MIC | >64 µg/mL
Clc1ccc(C(c2ccccc2)n2ccnc2)cc1 | agar | - | MIC90 | 0.5 µg/mL
OC(CCn1ccnc1)c1ccc(-c2ccccc2)cc1 | broth dilution | RTCC 1090 | MIC | >64 µg/mL
CCCCCCCCCCCCCCCCCCC1=NCCCC1 | - | ATCC 6258 | MIC | 20 µg/mL
NC(Cc1ccccc1)C(=O)CC(CC1C=Nc2ccccc21)C(=O)NC(Cc1cccc(O)c1)C(=O)O | broth dilution | ATCC 6258 | MIC | 382 µg/mL
CC(C)(O)c1cn(-c2ccc(Cl)cc2)nn1 | broth dilution | URM 109 | MIC | 128 µg/mL
O=C(CCn1ccnc1)c1ccc(Cl)cc1 | broth dilution | RTCC 1001 | MIC | >64 µg/mL
NC(=O)c1cc[n+](Cc2ccc(C[n+]3ccc(/C=N/O)cc3)s2)cc1.[Cl-].[Cl-] | broth dilution | - | EC50 | >20 µg/mL
CCCCCCCCCCCCCCCC(=O)NC(CCCCN)C(=O)NC(CCCCN)C(N)=O | broth dilution | 4684 | MIC | 1 µg/mL
CC(C)=CCN=C(NCC=C(C)C)NCC=C(C)C | - | ATCC 6258 | MIC | 62.5 µg/mL
Cc1ccc(N2N=C(c3c[nH]c4ccccc34)CC2c2cccc(Cl)c2Cl)cc1 | broth dilution | NRRL Y-7179 | MIC | 200 µg/mL
OC(CCn1ccnc1)c1ccc(Br)cc1 | broth dilution | RTCC 1090 | MIC | >64 µg/mL
C[C@@H]1CC(=O)N(Cc2ccccc2)C1=O | broth dilution / turbidity | CCC 117-2000 | MIC | 62.5 µg/mL
O=C(/C=C/c1cc(Cl)cc(Cl)c1)c1c[nH]c2ccccc12 | broth dilution | NRRL Y-7179 | MIC | 200 µg/mL
Cc1ccc(-c2c3c(N)c4c(nc3nc3c2c(C)nn3-c2ccccc2)CCCC4)cc1 | broth dilution / absorbance | CCC 117 | MIC80 | 15.6 µg/mL
O/N=C/c1cc[n+](Cc2ccc(C[n+]3ccc(/C=N/O)cc3)s2)cc1.[Cl-].[Cl-] | broth dilution | - | EC50 | >20 µg/mL
CC1CC(=O)N(c2ccc(F)cc2F)C1=O | broth dilution / turbidity | CCC 117-2000 | MIC | 125 µg/mL
OC(CCn1ccnc1)c1cccc(C(O)c2ccc(Br)cc2)c1 | broth dilution | RTCC 1001 | MIC | >64 µg/mL
O=C(/C=C/c1c(Cl)cccc1Cl)c1c[nH]c2ccccc12 | broth dilution | NRRL Y-7179 | MIC | 200 µg/mL
COC(=O)/C(C)=C1\C(=O)[C@H](O)[C@]2(C)C3=C(C[C@@H]4[C@]5(OC(=O)C6=C5C[C@H]5[C@](O)(COC(=O)/C(C)=C/COC(=O)CCC(=O)OC6)[C@H]6C[C@H]6[C@]45C)[C@H]31)[C@H]1C[C@H]12 | broth dilution | ATCC 6258 | MIC | 64 µg/mL
O=C(c1ccccc1)C(c1ccccc1)n1cncn1 | broth dilution | - | MFC | >256 µg/mL
CC1=C2C(=O)c3c(C)coc3C[C@@]2(C)[C@H](O)C[C@H]1O | broth dilution | ATCC 6258 | MIC | >256 µg/mL
CCC(C)CC(C)CCCCCCCCC(=O)N[C@H]1C[C@@H](O)[C@H](NCCN)NC(=O)[C@@H]2[C@@H](O)CCN2C(=O)[C@H]([C@H](O)CCN)NC(=O)[C@H]([C@H](O)[C@@H](O)c2ccc(O)cc2)NC(=O)[C@@H]2C[C@@H](O)CN2C(=O)[C@H]([C@@H](C)O)NC1=O | broth dilution | ATCC 27393 | MIC50 | 0.25 µg/mL
C=CCc1ccc(O)c(OC)c1 | turbidity | 139 | MIC90 | 500 µg/mL
Cc1ccc(-c2c3c(N)c4c(nc3nc3c2c(C)nn3-c2ccccc2)CCC4)cc1 | broth dilution / absorbance | CCC 117 | MIC50 | 62.5 µg/mL
CC1CC(=O)N(c2ccc([N+](=O)[O-])cc2)C1=O | broth dilution / turbidity | CCC 117-2000 | MIC | 125 µg/mL
Clc1ccc(C(c2ccccc2)n2cnc3ccccc32)cc1 | agar | - | MIC90 | >256 µg/mL
CC1CC(=O)N(CCCc2ccccc2)C1=O | broth dilution / turbidity | CCC 117-2000 | MIC | 125 µg/mL
Clc1ccc(C(c2ccccc2)n2nnc3ccccc32)cc1 | broth dilution | - | MFC | >256 µg/mL
OC(CCn1ccnc1)c1cccc(C(O)c2ccc(Cl)c(Cl)c2)c1 | broth dilution | RTCC 1090 | MIC | >64 µg/mL
O/N=C/c1cccc[n+]1Cc1ccc(C[n+]2ccccc2/C=N/O)s1.[Cl-].[Cl-] | broth dilution | - | EC50 | >20 µg/mL
Cc1ccc(-c2c3c(N)c4c(nc3nc3c2c(C)nn3-c2ccccc2)CCCCC4)cc1 | broth dilution / absorbance | CCC 117 | MIC50 | 62.5 µg/mL
COc1ccc(C(c2ccc(OC)cc2)n2ccnc2)cc1 | agar | - | MIC90 | >256 µg/mL
Nc1scc2c1c(=O)oc1ccc3ccccc3c12 | broth dilution | ATCC 6258 | MIC | 256 µg/mL
CC(C)CC(O)C(=O)O | broth dilution | ATCC 6258 | EC50 | 36000 µg/mL

5 of the rows above, restated:

SMILES,method,strain or isolate,measure,value
CCC(C)CC(C)CCCCCCCCC(=O)N[C@H]1C[C@@H](O)[C@H](NCCN)NC(=O)[C@@H]2[C@@H](O)CCN2C(=O)[C@H]([C@H](O)CCN)NC(=O)[C@H]([C@H](O)[C@@H](O)c2ccc(O)cc2)NC(=O)[C@@H]2C[C@@H](O)CN2C(=O)[C@H]([C@@H](C)O)NC1=O,broth dilution,ATCC 27393,MIC50,0.25 µg/mL
O=C(c1ccccc1)C(c1ccccc1)n1ccnc1,broth dilution,-,MFC,>256 µg/mL
Cc1ccc(N2N=C(c3c[nH]c4ccccc34)CC2c2cccc(Cl)c2Cl)cc1,broth dilution,NRRL Y-7179,MIC,200 µg/mL
NC(=O)c1cc[n+](Cc2ccc(C[n+]3ccc(/C=N/O)cc3)s2)cc1.[Cl-].[Cl-],broth dilution,-,EC50,>20 µg/mL
CCCCCCCCCCCCCCCCCCC1=NCCCC1,-,ATCC 6258,MIC,20 µg/mL

ECn is the concentration giving n% inhibition of infection, replication or growth. Lines come from different laboratories, so protocols vary. Blank or dashed fields: not listed here.